Pooled drug test results. Numbers come from NIAID ChemDB, via PubChem.

All rows: toxicity to cultured cells; read-out: CC50

Two numbers with a dash give a range or band. CCn is the concentration with n% toxicity to the cells. Conditions beyond the fields shown may differ between rows. Blank or dashed fields: not listed here.

| smiles | method | cells | value |
|---|---|---|---|
| COC1=CC(=O)c2c(cc(OC)c(C(C)C3=C(O)c4c(O)cc(O)cc4C(=O)C3=O)c2O)C1=O | - | BCA | 0.37 µg/mL |
| Nc1nc(=O)c2ncn([C@@H]3O[C@H](CO)[C@@H](O)[C@H]3O)c2c(=O)[nH]1 | - | BFU-E | 58 µM |
| COc1cccc(CNC(=O)c2ccc3ncnc(Nc4ccc(N5CCOCC5)cc4)c3c2)c1 | - | HUH 9B | >25 µM |
| CC1c2ccccc2CN1S(=O)(=O)c1ccc2[nH]c(=O)[nH]c2c1 | MTT | MT-2 human T-cells | 2.1 µM |
| O=c1cc(NCc2cccc(N3CCOCC3)n2)c2cccnc2n1O | - | HeLa | 0.11 µM |
| CN1CCN(C(=O)c2ccc3nc4ccccc4c(NC4CCN(Cc5ccccc5)CC4)c3c2)CC1 | - | BHK | 150 µM |
| Cc1cc(/C=N/NC(=O)Nc2cccc3nsnc23)cc(C)c1O | luminescence | Cf2Th-CD4/CCR5 | 0.1 µM |
| CCN(CC)C(=O)c1ccc2nc3ccccc3c(NC3CCN(Cc4ccccc4)CC3)c2c1 | - | BHK | 159 µM |
| O=c1cc(-c2ccn[nH]2)c2cccnc2n1O | - | HeLa | <100 µM |
| Nc1nc(Cl)cc(NCC2(CO)CCC2)n1 | - | MDCK | 33–58 µM |
| COc1ccc(/C=N/NC(=O)Nc2cccc3nsnc23)c(O)c1 | luminescence | Cf2Th-CD4/CCR5 | >112 µM |
| CN1C(=O)c2c(c3cccnc3n(O)c2=O)NC1c1ccccc1-c1ccccc1 | - | HeLa | <100 µM |
| O=C(CSc1ncccc1C(=O)O)c1ccc(O)c(O)c1 | - | HOS | 70 µM |
| CNCCC[C@@H](CN[C@H](CN)Cc1cccc2ccccc12)NCCc1cccc2ccccc12 | fluorescence | J774 | 40.39 µM |
| O=c1cc(Nc2ccccc2)c2cccnc2n1O | - | HeLa | <100 µM |
| Nc1nc(Cl)c(N)c(NCC2(CO)CC(CCCc3ccccc3)C2)n1 | - | MDCK | 0.024–0.053 µM |
| O=S1(=O)CCN(Cc2ccc(-c3ccc4ncnc(Nc5ccc(N6CCOCC6)cc5)c4c3)o2)CC1 | - | HUH 9B | >25 µM |
| Cc1nnsc1C(=O)NNC(=S)Nc1ccc2ccccc2c1 | MTT | 143B | >100 µM |
| O=Cc1ccc(C2(Nc3ccc(N4CCOCC4)cc3)N=CNc3ccccc32)o1 | - | HUH 9B | 10–25 µM |
| Oc1cccc(Nc2ncnc3sc(-c4ccccc4)cc23)c1 | MTT | MT-2 human T-cells | 17 µM |
| Cc1cc(Nc2ncnc3ccc(-c4cccs4)cc23)ccc1N1CCOCC1 | - | HUH 9B | >25 µM |
| O=C(N/N=C/c1ccc(O)cc1)Nc1cccc2nsnc12 | luminescence | Cf2Th-CD4/CCR5 | 56.5 µM |
| COc1ccc(CSC2NN=C(c3sc(C)nc3C)N2C23CC4CC(CC(C4)C2)C3)cc1 | MTT | KBALB | >100 µM |
| CC(C)CCN(c1ccc(N2CCOCC2)cc1)c1ncnc2ccc(I)cc12 | - | HUH 9B | >25 µM |
| CCOC(=O)c1cnc(SC)nc1N1CC[N+]2(CC1)CC[N+]1(CCN(c3nc(SC)ncc3C(=O)OCC)CC1)CC2 | - | L929 | >72.5 µg/mL |
| Cc1cc(=O)oc2cc(OCc3cn(Cc4cc(=O)oc5ccc6ccccc6c45)nn3)ccc12 | MTT | HBL100 | 52.03 µg/mL |
| Cc1nc(C)c(-c2n[nH]c(=S)n2-c2ccc3ccccc3c2)s1 | MTT | 143B | >100 µM |
| CCc1n[nH]c(=S)n1N | MTT | Fibroblast L929 | >100 µg/mL |
| CC(=O)OC(C(C)C(C)C(C)(C)O)C1OC12C(O)CC1C3CCC4CC(=O)CCC4C3CCC12CO | MTT | P-388 | >50 µg/mL |
| Cc1cc(=O)oc2cc(OCc3cn(Cc4cc(=O)oc5ccc(Cl)cc45)nn3)ccc12 | MTT | HBL100 | 36.91 µg/mL |
| Nc1ccn(C[C@H]2COP(=O)(O)CO2)c(=O)n1 | - | MA-104 | 850 µM |
| Oc1ccc(-c2n[nH]c(C(F)(F)F)c2-c2ccc(Br)cc2)c(O)c1 | resazurin | NRK-52E | 7.58 µg/mL |
| CO[C@H]1CC(=O)c2c(O)cccc2[C@H]1O | - | BCA | 19.16 µg/mL |
| O=c1cc(N2CCCC(CN3CCOCC3)C2)c2cccnc2n1O | - | HeLa | <100 µM |
| CCC1(Cc2ccccc2)OS(=O)(=O)C=C1OCc1ccc(C)cc1 | - | HEL fibroblasts | 41.5 µM |
| O=C(N/N=C/c1cccc(O)c1)Nc1cccc2nsnc12 | luminescence | Cf2Th-CD4/CCR5 | 46.2 µM |
| CCCc1cc(=O)[nH]c(SC(C)C(=O)Nc2ccccc2C)n1 | MTT | MT-2 human T-cells | >100 µM |
| Clc1ccc(Nc2nnc(NCc3ccccc3)nn2)cc1 | - | Mammalian cells | 29 µM |
| COc1ccc(-n2cc(Cn3nc(-c4ccccc4)c4c3CCN(C(=O)Nc3ccccc3)C4)nn2)cc1 | MTT | RAW 264.7 | 340 µM |
| Cc1nc(N2CCCC2)c([N+](=O)[O-])c(N2CC[N+]3(CC2)CC[N+]2(CCN(c4nc(C)nc(N5CCCC5)c4[N+](=O)[O-])CC2)CC3)n1 | - | GMK | >70.7 µg/mL |
| O=C(N/N=C/c1cc(O)cc(O)c1)Nc1cccc2nsnc12 | luminescence | Cf2Th-CD4/CCR5 | >112 µM |
| FC(F)(F)Oc1ccc2ncnc(Nc3ccc(N4CCOCC4)cc3)c2c1 | - | HUH 9B | >25 µM |
| COC1=CC(=O)c2c(cc(OC)c(C(C)C3=C(O)c4c(cc(O)c(C(C)=O)c4O)C(=O)C3=O)c2O)C1=O | - | BCA | 1.14 µg/mL |
| COc1cc(O)c2c(c1O)C1O[C@]3(C)C[C@H]1[C@@H](CO3)C2=O | MTT | MDA-MB-231 | 64.2 µg/mL |
| OCC12C(c3ccc(Oc4ccccc4)cc3)C3(CO)C4N(Cc5ccc(Oc6ccccc6)cc5)C1C1(CO)C(C5C=CC(Oc6ccccc6)=CC5)C4(CO)C3N(Cc3ccc(Oc4ccccc4)cc3)C21 | - | EPG85-257DB | 80 µM |
| Nc1nc(Cl)c(N)c(NCC2(CO)CCC2)n1 | - | MDCK | 18–20 µM |
| Cc1csc(-c2ccc3ncnc(Nc4ccc(N5CCOCC5)cc4)c3c2)c1 | - | HUH 9B | >25 µM |
| O=c1[nH]cnc2c1ncn2[C@@H]1C[C@@H](F)[C@H](CO)O1 | - | PBM | >100 µM |
| c1ccc(COc2ccc(-c3ccc4ncnc(Nc5ccc(N6CCOCC6)cc5)c4c3)cc2)cc1 | - | HUH 9B | >25 µM |
| CCCC[C@@H](CN[C@@H](CN)CCCCNC)NCc1cccc2ccccc12 | fluorescence | J774 | 36.49 µM |
| CC(C)C1CC(CO)(CNc2nc(N)nc(Cl)c2C=O)C1 | - | MDCK | 13–16 µM |
| Nc1nc2c(ncn2[C@@H]2C[C@@H](F)[C@H](CO)O2)c(=O)[nH]1 | - | PBM | >100 µM |
| Cc1nc(C)c(-c2n[nH]c(=S)n2C23CC4CC(CC(C4)C2)C3)s1 | MTT | 143B | >100 µM |
| COc1cc(/C=N/NC(=O)Nc2cccc3nsnc23)ccc1O | luminescence | Cf2Th-CD4/CCR5 | 0.8 µM |
| O=S1(=O)C=C(OCc2ccccc2)C(Cc2ccccc2)(Cc2ccccc2)O1 | - | HEL fibroblasts | >200 µM |
| O=C(N/N=C/c1ccccc1)Nc1cccc2nsnc12 | luminescence | Cf2Th-CD4/CCR5 | 75.2 µM |
| CCCCNc1nnc(NCc2ccccc2)nn1 | - | Mammalian cells | >115 µM |
| CCCCN1C(c2sc(C)nc2C)=NNC1SC | MTT | 143B | >100 µM |
| CC(=O)OC(C(C)C(C)C(C)(C)OC(C)=O)C1OC12C(O)CC1C3CCC4CC(=O)CCC4C3CCC12CO | MTT | P-388 | >50 µg/mL |
| COc1cc(O)c2c(c1O)C(=O)c1cc(C)ncc1C2=O | MTT | MDA-MB-231 | 75.6 µg/mL |
| COc1ccc(/C=N/NC(=O)Nc2cccc3nsnc23)c(OC)c1 | luminescence | Cf2Th-CD4/CCR5 | 101 µM |
| CC1(C(c2ccccc2)c2ccccc2)OS(=O)(=O)C=C1OCc1ccccc1 | - | HEL fibroblasts | >200 µM |
| CC(C)c1nc(CN(C)C(=O)N[C@H](C(=O)N[C@@H](Cc2ccccc2)C[C@H](O)[C@H](Cc2ccccc2)NC(=O)OCc2cncs2)C(C)C)cs1 | - | EPG85-257P | 55 µM |
| Cc1nc(Cl)c([N+](=O)[O-])c(N2CC[N+]3(CC2)CC[N+]2(CCN(c4nc(C)nc(Cl)c4[N+](=O)[O-])CC2)CC3)n1 | - | L929 | >288 µg/mL |
| COC1=CC(=O)c2c(O)c(C)c3c(c2C1=O)OC(C)C3 | MTT | MDA-MB-231 | 110.2 µg/mL |
| O=C(NCCCl)N1CC[N+]2(CC1)CC[N+]1(CCN(C(=O)NCCCl)CC1)CC2 | - | K562 | >90.4 µg/mL |
| O=c1[nH]c(=O)n([C@@H]2C[C@@H](F)[C@H](CO)O2)cc1Cl | - | PBM | >100 µM |

Repeating the first 7 entries:

COC1=CC(=O)c2c(cc(OC)c(C(C)C3=C(O)c4c(O)cc(O)cc4C(=O)C3=O)c2O)C1=O ; cells: BCA ; value: 0.37 µg/mL
Nc1nc(=O)c2ncn([C@@H]3O[C@H](CO)[C@@H](O)[C@H]3O)c2c(=O)[nH]1 ; cells: BFU-E ; value: 58 µM
COc1cccc(CNC(=O)c2ccc3ncnc(Nc4ccc(N5CCOCC5)cc4)c3c2)c1 ; cells: HUH 9B ; value: >25 µM
CC1c2ccccc2CN1S(=O)(=O)c1ccc2[nH]c(=O)[nH]c2c1 ; method: MTT ; cells: MT-2 human T-cells ; value: 2.1 µM
O=c1cc(NCc2cccc(N3CCOCC3)n2)c2cccnc2n1O ; cells: HeLa ; value: 0.11 µM
CN1CCN(C(=O)c2ccc3nc4ccccc4c(NC4CCN(Cc5ccccc5)CC4)c3c2)CC1 ; cells: BHK ; value: 150 µM
Cc1cc(/C=N/NC(=O)Nc2cccc3nsnc23)cc(C)c1O ; method: luminescence ; cells: Cf2Th-CD4/CCR5 ; value: 0.1 µM